Laboratory results as given in US11185076B2 (priority 2017, dated 2021).
Where two headings read alike, the source gives them in different places.

Test system: rice leaf blight bacteria (Xanthomonas oryzae pv. oryzae)
Format: in vivo
Conditions: soil drench, 10 days before inoculation

Structure (SMILES)	Result (control effect) (180 g ai/10a)	Result (control effect) (90 g ai/10a)	Result (control effect) (250 g ai/10a)
Cc1cccc2sc3nncn3c12 [Tricyclazole (c), tricyclazole]	B (a control value of 20 or more was evaluated as B (control effect was observed))	–	–
O=C1OCc2c(Cl)c(Cl)c(Cl)c(Cl)c21 [Fthalide (d), fthalide]	B (a control value of 20 or more was evaluated as B (control effect was observed))	–	–
O=C1CCc2cccc3c2N1CC3 [Pyroquilon (b), pyroquilon]	A (a control value of 50 or more was evaluated as A (high control effect was observed))	B (a control value of 20 or more was evaluated as B (control effect was observed))	–
CC(Oc1ccc(Cl)cc1Cl)C(=O)NC(C)(C#N)C(C)C (stereo not shown) [Fenoxanil (g), fenoxanil]	A (a control value of 50 or more was evaluated as A (high control effect was observed))	A (a control value of 50 or more was evaluated as A (high control effect was observed))	–
CCC1(C(=O)N[C@H](C)c2ccc(Cl)cc2)C(C)C1(Cl)Cl (stereo partly shown) [Carpropamide (e), carpropamid]	B (a control value of 20 or more was evaluated as B (control effect was observed))	B (a control value of 20 or more was evaluated as B (control effect was observed))	–
C=CCOC1=NS(=O)(=O)c2ccccc21 [Probenazole (h), probenazole]	–	–	A (a control value of 50 or more was evaluated as A (high control effect was observed))
Cc1ccc(C(=O)NC[C@@H](NC(=O)OCC(F)(F)F)C(C)C)cc1 [Tolprocarb (a), tolprocarb]	A (a control value of 50 or more was evaluated as A (high control effect was observed))	B (a control value of 20 or more was evaluated as B (control effect was observed))	–
C[C@@H](NC(=O)C(C#N)C(C)(C)C)c1ccc(Cl)cc1Cl (stereo partly shown) [Diclosimette (f), diclocymet]	A (a control value of 50 or more was evaluated as A (high control effect was observed))	B (a control value of 20 or more was evaluated as B (control effect was observed))	–
